Data: paper PMC9637222, “Autoinducer-2 and bile salts induce c-di-GMP synthesis to repress the T3SS via a T3SS chaperone” (Nature Communications, 2022)

Test system: promoters of sopB, sopE2, and the sicAsipBCDA operon
Test: Promoter-lacZ fusion β-galactosidase assay
Settings: 1 μM; for β-Galactosidase (Miller units): strain ΔyedQ, Fig. 4k; for Repression of promoter activities of sopB, sopE2, and sicAsipBCDA (in words): ΔyedQ mutant

SMILES: C[C@H](CCC(=O)NCCS(=O)(=O)O)[C@H]1CC[C@H]2[C@@H]3[C@H](O)C[C@@H]4C[C@H](O)CC[C@]4(C)[C@H]3C[C@H](O)[C@]12C [taurocholate]
- β-Galactosidase (Miller units) (PsicAsipBCDA): 1648.43 Miller units and 1718.87 Miller units and 1770.27 Miller units
- β-Galactosidase (Miller units) (PsopB): 861.75 Miller units and 866.02 Miller units and 837.86 Miller units
- β-Galactosidase (Miller units) (PsopE2): 1038.86 Miller units and 1126.56 Miller units and 1128.41 Miller units
- Repression of promoter activities of sopB, sopE2, and sicAsipBCDA (in words): completely abolished

SMILES: C[C@H](CCC(=O)NCCS(=O)(=O)O)[C@H]1CC[C@H]2[C@@H]3CC[C@@H]4C[C@H](O)CC[C@]4(C)[C@H]3C[C@H](O)[C@]12C [taurodeoxycholate]
- Repression of promoter activities of sopB, sopE2, and sicAsipBCDA (in words): completely abolished

“And” between values parts separate entries of the source, which are not always exact repeats. Equal entries are not always repeated.
